Anti-infective test results gathered from many reports (values: NIAID ChemDB through PubChem).

Common to all: whole-cell or culture tests; agent: Candida albicans

MIC50, MIC90 and the like: level of inhibition, or share of isolates inhibited. An empty or dashed field is not shown. Inhibition is in % at the dose shown (toxicity tests: loss of growth or viability). Lines come from different laboratories, so protocols vary. Zones are inhibition diameters on agar.

{"smiles": "CCC(C)n1ncn(-c2ccc(N3CCN(c4ccc(OC[C@H]5CO[C@](Cn6cncn6)(c6ccc(Cl)cc6Cl)O5)cc4)CC3)cc2)c1=O", "strain or isolate": "A14060", "endpoint": "MIC", "value": "0.13 µg/mL"}
{"smiles": "C[C@@H]1[C@H](O)[C@@H](C)/C=C/C=C/CC/C=C/C=C/C=C/C=C/C(O[C@H]2O[C@H](C)[C@@H](O)[C@H](N)[C@@H]2O)CC2O[C@](O)(CC(O)C(O)CCC(O)CC(O)CC(O)CC(=O)O[C@H]1C)CC(O)C2C(=O)O", "read by": "agar diffusion / agar", "strain or isolate": "75 strains", "tested at": "10 µg/mL", "endpoint": "inhibition", "value": "67%"}
{"smiles": "COc1ccc(CCC2CCCC3=C2CCN(C)C3)cc1", "strain or isolate": "C316", "endpoint": "MIC", "value": "62 µg/mL"}
{"smiles": "CCCCCCCCC/C=C/C(=O)O", "read by": "XTT", "strain or isolate": "SC5314", "tested at": "300 µM", "endpoint": "inhibition", "value": "90%"}
{"smiles": "CCCCCSc1nc2ccc(N)cc2s1", "strain or isolate": "IEM 49/64", "tested at": "100 µM", "endpoint": "inhibition", "value": "≥70%"}
{"smiles": "Cc1c(N2C[C@@H](N)[C@@H](C)C2)c(F)cn2c(=O)c(C(=O)O)cc(C3CC3)c12", "strain or isolate": "CCH442", "endpoint": "MIC", "value": ">100 µg/mL"}
{"smiles": "CN1CCC2=C(CCCC2CCc2ccccc2Cl)C1", "strain or isolate": "2402E", "endpoint": "MIC", "value": "62 µg/mL"}
{"smiles": "C(/C=C/c1ccccc1)=NCCNCCN=C/C=C/c1ccccc1.N#C[S][Hg][S]C#N", "read by": "agar diffusion", "tested at": "30000 µg/mL", "endpoint": "zone", "value": "27 mm"}
{"smiles": "COc1c(N2CCC(N)C2)c(F)cn2c(=O)c(C(=O)O)cc(C3CC3)c12.Cl", "strain or isolate": "CCH442", "endpoint": "MIC", "value": ">100 µg/mL"}
{"smiles": "NC(=O)[C@H](Cc1c[nH]c2ccccc12)NC(=O)[C@H](CCCN=C(N)N)NC(=O)[C@@H](Cc1cccc2ccccc12)NC(=O)[C@@H](N)Cc1cnc[nH]1", "read by": "colony count", "tested at": "100 µM", "endpoint": "inhibition", "value": "43%"}
{"smiles": "Cc1ccc(N2NOC(=O)C2S(=O)(=O)Nc2nc(-c3c(Cl)cccc3Cl)cs2)cc1", "read by": "agar diffusion", "strain or isolate": "MTCC 227", "tested at": "250 µg/mL", "endpoint": "zone", "value": "18 mm"}
{"smiles": "CN1CCC2=C(CCCC2CCc2ccc(F)cc2)C1", "strain or isolate": "2402E", "endpoint": "MIC", "value": "31 µg/mL"}
{"smiles": "Cc1ccc(N2NOC(=O)C2S(=O)(=O)Nc2nc(-c3ccc(Br)cc3)cs2)cc1", "read by": "agar diffusion", "strain or isolate": "MTCC 227", "tested at": "250 µg/mL", "endpoint": "zone", "value": "21 mm"}
{"smiles": "COc1cc(C[C@H](C)[C@H](C)Cc2ccc(O)c(O)c2)ccc1O", "read by": "broth dilution", "strain or isolate": "CCC 130-2000", "endpoint": "MIC80", "value": "125 µg/mL"}
{"smiles": "Cc1c(N2CCC(C(C)N)C2)c(F)cn2c(=O)c(C(=O)O)cc(C3CC3)c12.Cl", "strain or isolate": "CCH442", "endpoint": "MIC", "value": ">100 µg/mL"}
{"smiles": "OC(Cn1cncn1)(Cn1cncn1)c1ccc(F)cc1F", "read by": "broth dilution", "strain or isolate": "YL 339", "endpoint": "MIC", "value": "512 µg/mL"}
{"smiles": "Cc1ccc(N2NOC(=O)C2S(=O)(=O)Nc2nc3ccc(Cl)cc3s2)cc1", "read by": "agar diffusion", "strain or isolate": "MTCC 227", "tested at": "250 µg/mL", "endpoint": "zone", "value": "20 mm"}
{"smiles": "Cc1c(N2CC[C@@H]([C@@H](C)N)C2)c(F)cn2c(=O)c(C(=O)O)cc(C3CC3)c12.Cl", "strain or isolate": "CCH442", "endpoint": "MIC", "value": ">100 µg/mL"}
{"smiles": "Cc1ccc(N2NOC(=O)C2S(=O)(=O)Nc2nc(-c3ccc(F)cc3F)cs2)cc1", "read by": "agar diffusion", "strain or isolate": "MTCC 227", "tested at": "250 µg/mL", "endpoint": "zone", "value": "21 mm"}
{"smiles": "Cc1c(N2CCN(c3ccccn3)CC2)c(F)cn2c(=O)c(C(=O)O)cc(C3CC3)c12", "strain or isolate": "CCH442", "endpoint": "MIC", "value": ">100 µg/mL"}
{"smiles": "C[C@@H]([C@H]1CC[C@H](C)C(=O)C1)[C@H]1CC[C@]2(C)C3=C(CC[C@@]12C)[C@]1(C)CC[C@H](O)C(C)(C)[C@H]1CC3", "read by": "agar diffusion / agar", "strain or isolate": "MTCC 183", "tested at": "10 µg/disc", "endpoint": "zone", "value": "29 mm"}
{"smiles": "C[C@H]1[C@H](O)[C@@H](C)/C=C/C=C/C=C/C=C/C=C/C=C/C=C/[C@H](O[C@@H]2O[C@H](C)[C@@H](O)[C@H](N)[C@@H]2O)C[C@@H]2O[C@](O)(C[C@@H](O)C[C@@H](O)CC[C@H](O)[C@@H](O)C[C@@H](O)CC(=O)O[C@H]1C)C[C@H](O)[C@H]2C(=O)O", "strain or isolate": "20 isolates", "tested at": "0.4 µg/mL", "endpoint": "inhibition", "value": "50%"}
{"smiles": "COc1ccc(CCC2CCCc3cnccc32)cc1", "strain or isolate": "C316", "endpoint": "MIC", "value": "125 µg/mL"}
{"smiles": "CC(C)[C@H](NC(=O)[C@H](Cc1ccccc1)NC(=O)[C@H](CCCCN)NC(=O)CN)C(N)=O", "read by": "colony count", "tested at": "100 µM", "endpoint": "inhibition", "value": "5%"}
{"smiles": "Clc1ccc(CCC2CCCc3cnccc32)cc1", "strain or isolate": "2005E", "endpoint": "MIC", "value": "8 µg/mL"}
{"smiles": "CCO[C@@H]1C[C@@H]([C@H](C)[C@H]2CC[C@]3(C)C4=C(CC[C@@]23C)[C@]2(C)CC[C@H](O)C(C)(C)[C@H]2CC4)CC[C@@H]1C", "read by": "agar diffusion / agar", "strain or isolate": "MTCC 183", "tested at": "0.25 µg/disc", "endpoint": "zone", "value": "9 mm"}
{"smiles": "CN1CCC2=C(CCCC2CCc2c(Cl)cccc2Cl)C1", "strain or isolate": "2402E", "endpoint": "MIC", "value": "16 µg/mL"}
{"smiles": "CCNCC1CCN(c2c(F)cn3c(=O)c(C(=O)O)cc(C4CC4)c3c2C)CC1.Cl", "strain or isolate": "CCH442", "endpoint": "MIC", "value": ">100 µg/mL"}
{"smiles": "CC(=O)N1CCN(c2ccc(OC[C@H]3CO[C@](Cn4ccnc4)(c4ccc(Cl)cc4Cl)O3)cc2)CC1", "read by": "agar diffusion / agar", "strain or isolate": "75 strains", "tested at": "15 µg/mL", "endpoint": "inhibition", "value": "48%"}
{"smiles": "Cc1c(N2CC[C@H](n3cccc3)C2)c(F)cn2c(=O)c(C(=O)O)cc(C3CC3)c12", "strain or isolate": "CCH442", "endpoint": "MIC", "value": ">100 µg/mL"}
{"smiles": "CC1=C(CCCc2ccc(F)cc2)CCN(C)C1", "strain or isolate": "C316", "endpoint": "MIC", "value": "31 µg/mL"}

Repeating the final 3 entries:

smiles	read by	strain or isolate	tested at	endpoint	value
CC(=O)N1CCN(c2ccc(OC[C@H]3CO[C@](Cn4ccnc4)(c4ccc(Cl)cc4Cl)O3)cc2)CC1	agar diffusion / agar	75 strains	15 µg/mL	inhibition	48%
Cc1c(N2CC[C@H](n3cccc3)C2)c(F)cn2c(=O)c(C(=O)O)cc(C3CC3)c12		CCH442		MIC	>100 µg/mL
CC1=C(CCCc2ccc(F)cc2)CCN(C)C1		C316		MIC	31 µg/mL